A mixed list of measured activities; the numbers were collected in NIAID ChemDB.

Common to all: whole-cell or culture tests; agent: Mycobacterium fortuitum; read-out: MIC90

MIC50, MIC90 and the like: level of inhibition, or share of isolates inhibited. Lines come from different laboratories, so protocols vary.

C[C@H]1c2cccc(O)c2C(O)=C2C(=O)[C@]3(O)C(O)=C(C(N)=O)C(=O)[C@@H](N(C)C)[C@@H]3[C@@H](O)[C@@H]21 ; strain: 10 strains ; result: >16 µg/mL
CCn1cc(C(=O)O)c(=O)c2cc(F)c(N3CCNCC3)cc21 ; result: 2 µg/mL
CN[C@@H]1[C@H](O)[C@H](NC)[C@H]2O[C@@]3(O)C(=O)C[C@@H](C)O[C@H]3O[C@@H]2[C@H]1O ; strain: 31 isolates ; result: >64 µg/mL
O=C(O)c1cn(-c2ccc(F)cc2)c2cc(N3CCNCC3)c(F)cc2c1=O ; strain: 19 strains ; result: 2 µg/mL
C[C@@H]1CN(c2c(F)c(N)c3c(=O)c(C(=O)O)cn(C4CC4)c3c2F)C[C@H](C)N1 ; result: 1.5 µg/mL
CN1CCN(c2cc3c(cc2F)c(=O)c(C(=O)O)cn3-c2ccc(F)cc2)CC1 ; strain: 19 strains ; result: 4 µg/mL
NC1CCN(c2nc3c(cc2F)c(=O)c(C(=O)O)cn3-c2ccc(F)cc2F)C1 ; strain: 25 isolates ; result: >8 µg/mL
NC[C@H]1O[C@H](O[C@H]2[C@H](O)[C@@H](O[C@H]3O[C@H](CO)[C@@H](O)[C@H](N)[C@H]3O)[C@H](N)C[C@@H]2N)[C@H](N)C[C@@H]1O ; strain: 18 strains ; result: 32 µg/mL
CC[C@H]1OC(=O)[C@H](C)[C@@H](O[C@H]2C[C@@](C)(OC)[C@@H](O)[C@H](C)O2)[C@H](C)[C@@H](O[C@@H]2O[C@H](C)C[C@H](N(C)C)[C@H]2O)[C@](C)(O)C[C@@H](C)CN(C)[C@H](C)[C@@H](O)[C@]1(C)O ; strain: 48 strains ; result: >64 µg/mL
CN[C@@H]1[C@@H](O)[C@@H](O[C@@H]2[C@@H](O)[C@H](O[C@H]3O[C@H](CN)CC[C@H]3N)[C@@H](N)C[C@H]2N)OC[C@]1(C)O ; strain: 31 isolates ; result: 16 µg/mL
CC(=O)O[C@H]1C[C@@]2(C)[C@@H](C[C@@H](O)[C@H]3[C@@]4(C)CC[C@@H](O)[C@@H](C)[C@@H]4CC[C@@]32C)/C1=C(\CCC=C(C)C)C(=O)O ; strain: 19 strains ; result: >128 µg/mL
C[C@H]1c2cccc(O)c2C(O)=C2C(=O)[C@]3(O)C(O)=C(C(N)=O)C(=O)[C@@H](N(C)C)[C@@H]3[C@@H](O)[C@@H]21 ; strain: 18 strains ; result: 32 µg/mL
CCNCC1CCN(c2c(F)cc3c(=O)c(C(=O)O)cn(CC)c3c2F)C1 ; strain: 19 strains ; result: 2 µg/mL
CO[C@@]1(NC(=O)Cc2cccs2)C(=O)N2C(C(=O)O)=C(COC(N)=O)CS[C@@H]21 ; strain: 13 strains ; result: 25 µg/mL
C[C@H]1COc2c(N3CCN(C)CC3)c(F)cc3c(=O)c(C(=O)O)cn1c23 ; strain: 48 strains ; result: 0.25 µg/mL
CO[C@H]1/C=C/O[C@@]2(C)Oc3c(C)c(O)c4c(O)c(c(/C=N/N5CCN(C)CC5)c(O)c4c3C2=O)NC(=O)/C(C)=C\C=C\[C@H](C)[C@H](O)[C@@H](C)[C@@H](O)[C@@H](C)[C@H](OC(C)=O)[C@@H]1C ; strain: 20 strains ; result: 100 µg/mL
CC[C@H](C)N1CCN(c2cc(=O)c3nc4c(oc3c2)c2c(=O)c3c(O)c(C)c5c(c34)=C(O)[C@@](C)(O/C=C/[C@H](OC)[C@@H](C)[C@@H](OC(C)=O)[C@H](C)[C@H](O)[C@H](C)[C@@H](O)[C@@H](C)/C=C/C=C(/C)C(=O)N2)O5)CC1 ; strain: 20 strains ; result: >100 µg/mL